According to patent publication US6077934A (priority 1998, dated 2000):

Test system: Swiss Webster mice
Test: Bioassay: intracranial injection into Swiss Webster mice (11 days old)

SMILES: NCC(=O)N[C@H]1CSSC[C@@H](C(N)=O)NC(=O)[C@H](Cc2c[nH]c3ccccc23)NC(=O)[C@@H]2CCCN2C(=O)[C@H](CCC(N)=O)NC(=O)[C@@H](Cc2c[nH]c3ccccc23)NC(=O)[C@@H]2C[C@@H](O)CN2C1=O
- symptomatology after intracranial injection (native peptide purified from venom, injected intracranially into mice): "stiff-tail syndrome"
- symptomatology after intracranial injection (synthetic D-Trp-containing peptide, 15 nmol, injected into mice): stiff tail syndrome, paralysis of extremities, circular motion and barrel-rolling
